Literature values as cited in article PMC3811480, “The R Enantiomer of the Antitubercular Drug PA-824 as a Potential Oral Treatment for Visceral Leishmaniasis” (Antimicrobial Agents and Chemotherapy, 2013).

Test system: lab-generated strains of nifurtimox-resistant T. brucei
Conditions: cited from earlier work

Compound: O=[N+]([O-])c1cn2c(n1)OC[C@@H](OCc1ccc(OC(F)(F)F)cc1)C2 [(S)-PA-824, reference compound]
- sensitivity of nifurtimox-resistant T. brucei: no change in sensitivity
